From PMC5080381

Chains of the proteins cited; added tags and fusions are not shown. Lines headed by an entry give the natural chain unless they say otherwise; changes in a name come on top.
UniProt A9JX06: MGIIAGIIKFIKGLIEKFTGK
UniProt A9JX05: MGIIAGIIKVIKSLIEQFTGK
UniProt A9JX08: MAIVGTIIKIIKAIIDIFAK

Columns and labels:
Assay in all cases: EMSA
Conditions in all cases: EMSA: LightShift kit, 20 fM biotinylated DNA, 146 nM GST-PmtR, 20 ul, 20 min, room temperature
[1] = biological target: PSMα2 (Staphylococcus aureus) (UniProt A9JX06)
[2] = biological target: PSMα1 (Staphylococcus aureus) (UniProt A9JX05)
[3] = biological target: PSMα4 (Staphylococcus aureus) (UniProt A9JX08)

Measured: binding result

AATCACAATCTACTACCTTACTGGAATTTAATTTATCTTATAATTTCCCTTGCATATAAGTTACATTACTTCAGCCTCCTAATTGTACCCTTAGCACGAAGACAAATTTGTTCTTACCTATATTTCATCATTGGTAAGGGGATTGCATGTCCCACGTAAAACATTGTTAAACTCTTAGGTTTTTGAACGATAAAAACTTT (double strand) [random DNA fragment]
binds: [1] | [2] | [3]

The exact form of at least one protein or probe is not confirmed.
